Measured values from several laboratories, pooled; numbers as filed in NIAID ChemDB.

Shared fields: whole-cell or culture tests; species: Mycobacterium tuberculosis

ECn: concentration that inhibits the pathogen or its effect by n%. Rows are shuffled and stem from different studies. Percent inhibition refers to the dose given; in toxicity tests it is the harm to the cells. MIC bound: limit read from a one-dose screen. Two numbers with a dash give a range or band. MIC50, MIC90 and the like: level of inhibition, or share of isolates inhibited. Blank or dashed fields: not listed here.

smiles | cell line | tested at | method | read-out | strain | result
O=C1Nc2ccccc2[C@]12N1CSC[C@H]1[C@H](c1ccc([N+](=O)[O-])cc1)[C@]21Cc2ccccc2C1=O | - | - | agar | MIC99 | H37Rv | 12.9 µM
COc1ccccc1/C=N/N=C(\N)c1ccncc1 | - | - | - | MIC | H37Rv | 4 µg/mL
C[C@H](c1ccccc1)N1C/C(=C\c2ccccc2Cl)[C@@]2(ON=C(c3ccccc3)O2)[C@@]2(C1)ON=C(c1ccccc1)[C@@H]2c1ccccc1Cl | - | - | - | MIC | H37Rv | 9.03 µM
CC1NOC(NS(=O)(=O)c2ccc(N=Nc3ccc(=O)[nH]c3O)cc2)C1C | - | 12.5 µg/mL | BACTEC | inhibition | H37Rv | 6%
N#Cc1ccc(Nc2nc(Oc3cccc4cccnc34)nc(N3CCN(c4ccc(F)cc4)CC3)n2)cc1C(F)(F)F | - | - | agar | MIC99 | H37Rv | 25 µg/mL
C/C(=N/NC(=S)N1CCN(C2CCCCCC2)CC1)c1ccccn1 | - | - | resazurin | MIC bound | H37Rv | <6.25 µg/mL
CC1CCc2c(-n3ccnc3)c(F)cc3c(=O)c(C(=O)O)cn1c23 | - | - | - | MIC90 | 100 strains | >25 µg/mL
Cc1cc(Oc2ccccc2)c2c(ccc3nc(C)cc(Oc4ccccc4)c32)n1 | - | 12.5 µg/mL | BACTEC | inhibition | H37Rv | 60%
N#Cc1ccc(Nc2nc(Oc3cccc4cccnc34)nc(N3CCCCC3)n2)cc1C(F)(F)F | - | - | agar | MIC96 | H37Rv | 200 µg/mL
COC(=O)C1C(O)C(C)C(O)C(C)/C=C\C=C(/C)C(=O)Nc2c(C)c3c4c(c2O)C(=O)C(C)=C2OCCC(=C24)C(OC(C)=O)(C3)/C(C)=C/C(C)(O)C(O)C(C)C1O | - | 12.5 µg/mL | BACTEC | inhibition | H37Rv | 63%
O=C1Nc2ccc(Cl)cc2[C@]12N1CSC[C@H]1[C@H](c1cccs1)[C@]21Cc2ccccc2C1=O | - | - | agar | MIC99 | H37Rv | 52.2 µM
NC1=CC(=O)C(=O)c2cccnc21 | - | - | - | MIC bound | H37Rv | >6.25 µg/mL
Cc1ccccc1[C@H]1[C@@H]2CSCN2[C@@]2(C(=O)Nc3ccc([N+](=O)[O-])cc32)[C@@]12Cc1ccccc1C2=O | - | - | agar | MIC99 | H37Rv | 25.1 µM
CNCCCOCc1ccc(Nc2ccn(CCCCN3CCC(N)CC3)c(=O)n2)nc1 | - | - | turbidity | EC50 | H37Rv | ≥1 µM
N#Cc1ccc(Nc2nc(Oc3cccc4cccnc34)nc(N3CCN(c4cccc(Cl)c4Cl)CC3)n2)cc1C(F)(F)F | - | - | BACTEC | MIC | H37Rv | >6.25 µg/mL
N/C(=N\N=C\c1ccccc1)c1ccncc1 | - | - | - | MIC | H37Rv | 16 µg/mL
COc1c(N2CCNC(C)C2)c(F)cc2c(=O)c(C(=O)O)cn(C3CC3)c12 | - | - | - | MIC90 | - | 0.25–4 µg/mL
Cc1ccc(C)n1-c1ccc(C(=O)NN2C(=O)CCC2=O)cc1 | - | - | resazurin | MIC | H37Rv | 12.5 µg/mL
Clc1ccc(CNc2ccc(N3CCSCC3)cc2)cc1 | - | - | - | MIC | 103471 | >16 µg/mL
Cc1ccc(/C=N/N=C(\N)c2ccncc2)c(C)c1 | - | - | - | MIC | Isolate 1751 ofloxacin-resistant | 16 µg/mL
CCN(CC)c1ccc(/C=N/Nc2cc(C)nc3ccc(C4CCCCC4)cc23)cc1 | VERO | - | - | MIC | H37Rv | 1.56 µg/mL
C[C@@H](O)[C@H]1C(=O)N2C(C(=O)O)=C(S[C@@H]3CN[C@H](C(=O)N(C)C)C3)C[C@]12C | - | - | - | MIC | - | 0.47 µM
NCCCOCc1ccc(Nc2ccn(CCCCN3CCC(N)CC3)c(=O)n2)nc1 | - | - | turbidity | EC50 | H37Rv | ≥1 µM
C[C@H](c1ccccc1)N1C/C(=C\c2ccccc2Br)C(=O)/C(=C/c2ccccc2Br)C1 | - | - | - | MIC | H37Rv | 23.26 µM
CC(=O)O.CC(=O)O.NCCCCC1NC(=O)C(CCCCN)NC1=O | - | - | BACTEC | MIC bound | H37Rv | >12.5 µg/mL
Cc1c(F)c(N2CCNC(C)C2)cc2c1c(=O)c(C(=O)O)cn2C1CC1 | - | - | - | MIC50 | - | 1 µg/mL
NCCCNC(=O)c1ccc(Nc2ccn(CCCCN3CCC(N)CC3)c(=O)n2)nc1 | - | - | turbidity | EC50 | H37Rv | <0.5 µM
CNn1cc(C(=O)O)c(=O)c2cc(F)c(N3CCN(C)CC3)cc21 | - | - | - | MIC90 | 19 strains | 12.5 µg/mL
NCCCC(N)CC(=O)NCC1NC(=O)C(CO)NC(=O)C(NC(=O)CC(N)CCCN)CNC(=O)C(C2CCN=C(N)N2)NC(=O)/C(=C/NC(N)=O)NC1=O | - | - | - | MIC | Isolate VIM-R/6 | 5 µg/mL
CCCCOCCN1CCN(CCCN2c3ccccc3Sc3ccc(C(F)(F)F)cc32)CC1.Cl.Cl | - | - | BACTEC | MIC | H37Rv | 6.25 µg/mL
Cc1ccc(/C=N/N=C(\N)c2ccncc2)cc1 | - | - | - | MIC | Isolate 1751 ofloxacin-resistant | 16 µg/mL
C[C@H](c1ccccc1)N1C[C@@]2(ON=C(c3ccc(Cl)cc3)[C@H]2c2ccccc2Br)C2(ON=C(c3ccc(Cl)cc3)O2)[C@]2(C1)ON=C(c1ccc(Cl)cc1)[C@H]2c1ccccc1Br | - | - | - | MIC | H37Rv | 3.14 µM
CN1CCN(c2ccc(NCc3ccc(Cl)cc3)cc2)CC1 | - | - | - | MIC | 103471 | >16 µg/mL
N#Cc1ccc(Nc2nc(Oc3cccc4cccnc34)nc(N3CCC(Cc4ccccc4)CC3)n2)cc1C(F)(F)F | - | - | agar | MIC97 | H37Rv | 200 µg/mL
CC1(C)N=C(N)N=C(N)N1c1ccc(CCCC(=O)Nc2ccc(S(=O)(=O)F)cc2)c(Cl)c1.CCS(=O)(=O)O | VERO | - | - | MIC | H37Rv | 3.13 µg/mL
O=C(C/C=C/c1ccccc1)Nc1cccc(N2CCSCC2)c1 | - | - | - | MIC | 103471 | 8 µg/mL
C[C@@H](CO)C1=C(O)c2ccc3c(c2C(=O)C1=O)CCCC3(C)C | - | 6.25 µg/mL | resazurin | inhibition | H37Rv | 38%
C[C@H](c1ccccc1)N1C/C(=C\c2ccccc2)C(=O)/C(=C/c2ccccc2)C1 | - | - | - | MIC | H37Rv | 65.88 µM
Cc1ccc(C)n1-c1nc(-c2ccc(N)cc2)cs1 | - | - | resazurin | MIC | H37Rv | 12.5 µg/mL
Cc1ccc(/C=C2\CN([C@H](C)c3ccccc3)C/C(=C\c3ccc(C)cc3)C2=O)cc1 | - | - | - | MIC | H37Rv | 30.67 µM
Cc1cc(NN)c2c(Cl)cc(Cl)cc2n1 | VERO | - | - | MIC | H37Rv | >12.5 µg/mL
CC[C@H]1OC(=O)[C@H](C)[C@@H](O[C@H]2C[C@@](C)(OC)[C@@H](OC(C)=O)[C@H](C)O2)[C@H](C)[C@@H](O[C@@H]2O[C@H](C)C[C@H](N(C)C)[C@H]2O)C(C)(O)C[C@@H](C)/C(=N\OCCCC2CCCCC2)[C@H](C)[C@@H](O)[C@]1(C)O | - | - | - | MIC | 7 | 3.13 µg/mL
Cc1nn(C(=O)c2ccncc2)c(C)c1N=Nc1ccc(S(=O)(=O)Nc2ccccn2)cc1 | - | - | BACTEC | MIC | H37Rv | ≥12.5 µg/mL
CC1=C(c2c(C)cc(O)c3c2C(=O)C(c2c(O)c4c(C)cccc4oc2=O)=C(c2c(O)c4c(C)cccc4oc2=O)C3=O)C(=O)c2c(O)cccc2C1=O | - | - | - | MIC | H37Rv (ATCC 27294) | 2.44 µg/mL
COS(=O)(=O)O.C[N+]1(CC(O)COc2ccc(Nc3ccc(N)c4c3C(=O)c3ccccc3C4=O)cc2)CCOCC1 | - | 12.5 µg/mL | BACTEC | inhibition | H37Rv | 75%
C[C@H](c1ccccc1)N1C/C(=C/c2ccccc2)[C@]2(ON=C(c3ccccc3)O2)C2(C1)ON=C(c1ccccc1)[C@H]2c1ccccc1 | - | - | - | MIC | - | 20.24 µM
COc1ccc([C@@H]2CC(=O)c3c(O)cc(O[C@@H]4O[C@H](CO[C@@H]5O[C@@H](C)[C@H](O)[C@@H](O)[C@H]5O)[C@@H](O)[C@H](O)[C@H]4O)cc3O2)cc1O | - | - | BACTEC | MIC bound | H37Rv | >12.8 µg/mL
NC1CCN(CCCCn2ccc(Nc3cc(C(=O)NC4CNC4)ccn3)nc2=O)CC1 | - | - | turbidity | EC50 | H37Rv | 0.5–1 µM
C=C(CC[C@@H](C)[C@H]1CC[C@H]2[C@@H]3C(C=O)=C4C[C@@H](O)CC[C@]4(C)[C@H]3CC[C@]12C)C(C)C | - | - | - | MIC | H37Rv | 7.8 µg/mL
CCN1CCN(c2nc(Nc3ccc(C#N)c(C(F)(F)F)c3)nc(Oc3cccc4cccnc34)n2)CC1 | - | - | BACTEC | MIC | H37Rv | >6.25 µg/mL
C=CN(O)C[C@@H](CCCC)C(=O)N[C@H](C(=O)N(C)C)C(C)(C)C | - | - | - | MIC | H37Rv | 0.2 µg/mL
O=C(OCCN=C1c2ccccc2CCc2ccccc21)c1cc([N+](=O)[O-])cc([N+](=O)[O-])c1 | - | 12.5 µg/mL | BACTEC | inhibition | H37Rv | 86%
CN(C)c1ccc(O)c2c1C[C@H]1C[C@H]3[C@H](N(C)C)C(=O)C(C(N)=O)=C(O)[C@@]3(O)C(=O)C1=C2O | - | - | - | MIC50 | 19 strains | >25 µg/mL
[Cl][Sn]([Cl])([Cl])[Cl].c1cnc2c(c1)ccc1cccnc12 | - | - | BACTEC | MIC bound | H37Rv | ≤12.5 µg/mL
O=C1Nc2ccc(Cl)cc2[C@]12N1CSC[C@H]1[C@H](c1ccc(Cl)cc1)[C@]21Cc2ccccc2C1=O | - | - | agar | MIC99 | H37Rv | 24.6 µM
Cc1ccc(C)n1-c1nc(-c2ccc(O)cc2)cs1 | - | - | resazurin | MIC | H37Rv | 12.5 µg/mL
CC1COc2c(N3CCN(C)CC3)c(F)cc3c(=O)c(C(=O)O)cn1c23 | - | - | - | MIC90 | - | 1–2 µg/mL
CCCCOc1ccc2nc(C)cc(NN)c2c1 | VERO | 12.5 µg/mL | - | inhibition | H37Rv | 99%
CN1CCN(c2ccccc2NCc2ccc(-c3ccccc3)cc2)CC1 | - | - | - | MIC | 103471 | 4 µg/mL
O=S(=O)(c1cnccc1N1CCN(CCO)CC1)N1CCCCC1 | - | 6.25 µg/mL | resazurin | inhibition | H37Rv | -18%
O=C(NN1C(=O)c2c(Br)c(Br)c(Br)c(Br)c2C1=O)c1ccc(-n2cccc2)cc1 | - | - | resazurin | MIC | H37Rv | 0.8 µg/mL
NNC(=O)c1ccncc1 | - | - | - | MIC | Isolate HN1984 (katG S315N mutation) | >256 µg/mL
C(=C\c1ccccc1)/CCNc1ccccc1N1CCSCC1 | - | - | - | MIC | 103471 | >16 µg/mL
COc1ccc2c(N/N=C/c3ccc4c(c3)OCO4)cc(C)nc2c1 | VERO | - | - | MIC | H37Rv | 12.5 µg/mL
CC(C)=CCOc1c2ccoc2cc2oc(=O)ccc12.NNC(=O)c1ccncc1 | - | - | agar | MIC100 | H37Rv | 1.56 µg/mL
COc1ccc(/C=N/Nc2cc(C)nc3ccc(C4CCCCC4)cc23)c2ccccc12 | VERO | 12.5 µg/mL | - | inhibition | H37Rv | 100%
CCOC(=O)/C=C/C(=O)O/C=C/[N+](=O)[O-] | - | 6.25 µg/mL | resazurin | inhibition | H37Rv | -24%
C[C@H]1COc2c(N3CCN(C)CC3)c(F)cc3c(=O)c(C(=O)O)cn1c23 | - | - | - | MIC90 | - | 0.5–16 µg/mL
O=[N+]([O-])c1ccc(N/N=C/c2nc3ccccc3[nH]2)c([N+](=O)[O-])c1 | - | - | resazurin | MIC bound | H37Rv | >6.25 µg/mL
C=C(C)/C=C/[C@]12C[C@H](C)[C@H]3CC[C@](C)(N)[C@@H](CC[C@H]1C)[C@@H]32 | - | 32 µg/mL | - | inhibition | H37Rv | 100%
O=C(CNC(=O)OCc1ccccc1)NC(CO)C(=O)OCc1ccccc1 | - | 12.8 µg/mL | BACTEC | inhibition | H37Rv | 39%
NC1CCN(CCCCn2ccc(Nc3ccc(CNC4CCNCC4)cn3)nc2=O)CC1 | - | - | turbidity | EC50 | H37Rv | <0.5 µM
O=C(O)c1cccc2nc3ccccc3nc12 | - | - | BACTEC | MIC bound | H37Rv | ≤12.5 µg/mL
NC1CCN(c2c(F)cc3c(=O)c(C(=O)O)cn(C4CC4)c3c2Cl)C1 | - | - | - | MIC90 | 60 strains | 0.5 µg/mL
C(=N\Nc1nnc2c3cccnc3c3ccccc3c2n1)/c1ccc2c(c1)OCO2 | - | - | BACTEC | MIC | H37Rv | ≥12.5 µg/mL
NCCC[C@H](N)CC(=O)N[C@H]1CNC(=O)[C@H]([C@H]2C[C@H](O)NC(N)=N2)NC(=O)/C(=C/NC(N)=O)NC(=O)[C@H](CO)NC(=O)[C@H](CO)NC1=O | - | - | - | MIC | Isolate VIM-R/3 | 20 µg/mL

8 of the rows above, restated:

smiles | cell line | tested at | method | read-out | strain | result
C[C@H](c1ccccc1)N1C/C(=C\c2ccccc2)C(=O)/C(=C/c2ccccc2)C1 | - | - | - | MIC | H37Rv | 65.88 µM
CCOC(=O)/C=C/C(=O)O/C=C/[N+](=O)[O-] | - | 6.25 µg/mL | resazurin | inhibition | H37Rv | -24%
COC(=O)C1C(O)C(C)C(O)C(C)/C=C\C=C(/C)C(=O)Nc2c(C)c3c4c(c2O)C(=O)C(C)=C2OCCC(=C24)C(OC(C)=O)(C3)/C(C)=C/C(C)(O)C(O)C(C)C1O | - | 12.5 µg/mL | BACTEC | inhibition | H37Rv | 63%
COc1ccc(/C=N/Nc2cc(C)nc3ccc(C4CCCCC4)cc23)c2ccccc12 | VERO | 12.5 µg/mL | - | inhibition | H37Rv | 100%
C[C@@H](CO)C1=C(O)c2ccc3c(c2C(=O)C1=O)CCCC3(C)C | - | 6.25 µg/mL | resazurin | inhibition | H37Rv | 38%
C[C@H](c1ccccc1)N1C/C(=C\c2ccccc2Br)C(=O)/C(=C/c2ccccc2Br)C1 | - | - | - | MIC | H37Rv | 23.26 µM
COS(=O)(=O)O.C[N+]1(CC(O)COc2ccc(Nc3ccc(N)c4c3C(=O)c3ccccc3C4=O)cc2)CCOCC1 | - | 12.5 µg/mL | BACTEC | inhibition | H37Rv | 75%
CCCCOc1ccc2nc(C)cc(NN)c2c1 | VERO | 12.5 µg/mL | - | inhibition | H37Rv | 99%